Test system: O=C(O)c1ccccc1NCC(=O)[C@H](O)[C@H](O)COP(=O)(O)O
Assay: purified protein
Details: pH 7.5; 25.0 °C

Q: With (Mycobacterium tuberculosis H37Rv) as the substance, how does the Km read?
A: 6.9 ± 1.4 µM
